The text below walks through data of article PMC12207370, “Macrocyclic Peptide Probes for Immunomodulatory Protein CD59: Potent Modulators of Bacterial Toxin Activity and Antibody‐Dependent Cytotoxicity” (Angewandte Chemie (International Ed. in English), 2025).

The test system of the data set is SK-BR-3 cells. Nature of the data set: ILY lysis assay (Sytox green, IncuCyte) in SK-BR-3 cells. Format: cell-based, human. As to the method:
Figure 5 CP‐06 and optimized analogues control CD59 activity in cellular assays. a) ILY lysis assay. SK‐BR‐3 cells were treated with CP‐06 (n = 4) or CP‐06[W3A] (n = 2), then with Sytox green dye and ILY ([…]). The plate was imaged immediately with the IncuCyte S3 Live Cell Analysis System and then every hour up to 14 h. The linear phase of lysis was taken from each well, and linear regression was performed to extract individual slope values, which were then normalized to maximum lysis rate (Sytox and ILY) vs. 0% lysis (Sytox only) within each plate. […] Human erythrocytes were sensitized with 1% w/v anti‐human erythrocyte Ab with 5% v/v human serum in the presence of a serial dilution of CP‐06C18 (black bars) or CP‐06scrmb‐C18 (red bars) Percent lysis enhancement was calculated by normalization to 0% enhancement (buffer well) and plotted as the mean of three biological replicates ± SEM.
Determination of optimal ILY concentration: 20,000 SK-BR-3 cells were seeded in a 96-well plate (Grenier, 655180) 24 h before treatment. […] Any bubbles were removed by a de-bubbler and the plate was immediately transferred to IncuCyte® S3 Live Cell Analysis System where each well was imaged 4 times at 10 × magnification with phase contrast and green fluorescence (λex 440–480 nm, λem = 504–544 nm) every hour for 24 h. […]

Numbered stars: 1 amine (or outer) side, 2 acyl side, 3 side chain; on linkers, the order of the positions; unused ones are H or OH. Bridge positions count the residues as written; N and C are the ends. Square brackets hold non-standard residues; d marks the D form. Peptide text beside a SMILES is read from it. I, II: the chains in the order shown. * marks the point of attachment. X1 = CCCCCCCCCCCCCCCCCOCCOCCOCCOCCOCCOCCOCCOCCOCCOCCOCCOCCOCCC(=O)*; CO(CH2CH2O)5CH2CH2CO = O=C(CCOCCOCCOCCOCCOCCC(=O)[*:2])[*:1]

In the case of `CC(C)[C@@H]1NC(=O)[C@H](CO)NC(=O)[C@H](CO)NC(=O)[C@H](CCCNC(=N)N)NC(=O)[C@H](CC(N)=O)NC(=O)CNC(=O)[C@H](Cc2c[nH]c3ccccc23)NC(=O)[C@H]([C@@H](C)O)NC(=O)[C@H](Cc2c[nH]c3ccccc23)NC(=O)[C@H](CO)NC(=O)[C@@H](Cc2ccc(O)cc2)NC(=O)CSC[C@@H](C(=O)NCC(=O)N[C@@H](CCCCNC(=O)CCOCCOCCOCCOCCOCCC(=O)NCCCC[C@H](NC(=O)CNC(=O)[C@@H]2CSCC(=O)N[C@H](Cc3ccc(O)cc3)C(=O)N[C@@H](CO)C(=O)N[C@@H](Cc3c[nH]c4ccccc34)C(=O)N[C@@H]([C@@H](C)O)C(=O)N[C@@H](Cc3c[nH]c4ccccc34)C(=O)NCC(=O)N[C@@H](CC(N)=O)C(=O)N[C@@H](CCCNC(=N)N)C(=O)N[C@@H](CO)C(=O)N[C@@H](CO)C(=O)N[C@@H](C(C)C)C(=O)N[C@@H](CCCNC(=N)N)C(=O)NCC(=O)N2)C(=O)NCC(N)=O)C(=O)NCC(N)=O)NC(=O)CNC(=O)[C@H](CCCNC(=N)N)NC1=O` [CP-06dimer] (I: {CH2CO}-[dY]SWTWGNRSSVRGCGKG-NH2 / II: {CH2CO}-[dY]SWTWGNRSSVRGCGKG-NH2; linker I:16-II:16 via CO(CH2CH2O)5CH2CH2CO; thioether I:N-I:14, II:N-II:14), the “fold enhancement of IC50 compared to CP-06” value worked out at 3 fold. In the case of `CCCCCCCCCCCCCCCCCOCCOCCOCCOCCOCCOCCOCCOCCOCCOCCOCCOCCOCCC(=O)NCCCC[C@H](NC(=O)CNC(=O)[C@@H]1CSCC(=O)N[C@H](Cc2ccc(O)cc2)C(=O)N[C@@H](CO)C(=O)N[C@@H](Cc2c[nH]c3ccccc23)C(=O)N[C@@H]([C@@H](C)O)C(=O)N[C@@H](Cc2c[nH]c3ccccc23)C(=O)NCC(=O)N[C@@H](CC(N)=O)C(=O)N[C@@H](CCCNC(=N)N)C(=O)N[C@@H](CO)C(=O)N[C@@H](CO)C(=O)N[C@@H](C(C)C)C(=O)N[C@@H](CCCNC(=N)N)C(=O)NCC(=O)N1)C(=O)NCC(N)=O` [CP-06C18] ({CH2CO}-[dY]SWTWGNRSSVRGCGK(X1)G-NH2; thioether N-14), the “fold enhancement of IC50 compared to CP-06” value is recorded as 250 fold.
